Laboratory results reported in article PMC11269945, “HTRF-based assay for detection of mono-ADP-ribosyl hydrolyzing macrodomains and inhibitor screening” (iScience, 2024).

Target: SARS-CoV Mac1 (Severe acute respiratory syndrome coronavirus, UniProt P0C6X7)
Test: DeMAR HTRF deMARylation assay, wash protocol
Details: wash setup, 2 h, 80 nM macrodomain, 6 nM immobilized Tb-PARP10cat

SMILES: O=C(Nc1ccc(C(=O)NC2c3cccc(O)c3CC2C(=O)O)c(O)c1)NC1CC1 (stereo not shown) [Z8539_0072]
- IC50 SARS-CoV: Unq. ^a
